For this data set, the system named is MEDI-524 Mab. Briefly: Isothermal titration calorimetry (ITC) of F peptides with MEDI-524 Mab. The note with it: 25 mM His; for ΔHbinding: Mab, 18° C., pH 6.07. It is filed as binding. The text has this:
Isothermal Titration calorimetry assays (ITC) have been described (see, for example, Heerklotz H et al., Biophysical Journal, May 1999). Molecular interactions are defined by stoichiometry and a few thermodynamic parameters. All binding reactions are associated with the absorption or generation of heat. Therefore calorimetry is emerging as a premier tool for the characterisation of interactions of biological macromolecules. ITC is the only method that measures equilibrium constants, enthalpy and entropy in one single experiment. If the experiment is performed at different temperatures the important parameter, the heat capacity change, can be determined. ITC has become a standard method for investigating the binding of ligands to receptor molecules. Accordingly, ligands are mixed with receptors, and the subsequent heats of incorporation (or binding) are measured.
To evaluate the binding properties of the wild-type peptide (SEQ ID NO.28) to Numax™/MEDI-524 by using the ITC technique. The MEDI-524 Mab was titrated with SEQ ID NO.28 in the basis buffer 25 mM His, pH 6 at 10° C. SEQ ID NO.28: (MW=2732.14, no W, Y, or C). A working solution of 55 μM was prepared by diluting 30 μL of a 5 mg/mL peptide solution with 970 μL, of 25 mM His, pH 6 buffer to be used for the ITC titrations. A 1.15 μM (0.1706 mg/ml) working solution of MEDI-524 was used for the experiments (MW 148400, A280=1.47).
To obtain binding constants for MEDI-524 Mab and MEDI-524 Fab fragments with F peptides constructed from F protein sequences, ITC was performed.
For this set of experiments, […] (1.16 μM-148.4 KDa) of MEDI-524 Mab and 0.088 mg/mL (1.88 μM-46.3 KDa) of MEDI-524 Fab, both in 25 mM His, pH 6.07 were used. On the other hand, 250 μl of lmg/mL of the different peptides dissolved in H2O, were provided by ABC. The peptides were then diluted into the appropriate volume of buffer to give a final concentration of 50 μM. The ITC experiments were run at 18° C. with the macromolecule (Mab or Fab) in the cell, by doing ˜26 injections of 10 μL of peptides, spaced 360 sec with constant stirring. The data fitting was accomplished by subtracting the average value of the few last injections as the buffer and unspecific heat of dilution contributions. […] A note apart is the fact that the observed binding capacity (N) increases with the length of the peptide, indicating possibly an extra conformational factor in the binding event. The entropic contribution: For the peptides SEQ ID NOs.24 and 26, the entropic factor seems to be similar; the extra amino acids at the end of the N-terminal seem not to affect greatly the binding parameters. On the other hand, the elongation at the C-terminal seems to decrease slightly the binding enthalpy, the binding constant, as well as the entropic factor. The binding capacity seems to be increased in the cases where the 30-mer peptides were used (SEQ ID Nos. 25 and 26), when compare to the SEQ ID NO.24 peptide, possibly due to the longer extent of the whole peptides. The binding constant seems to be smaller (weaker) for both 30-mer peptides respect to the 26-mer.

Marks after values point to notes of the source that are not given here.

Substance “NSELLSLINDMPITNDQKKLMSNN(X-orn)C [SEQ ID NO: 24]” displayed a ΔHbinding of -12.5 kcal/mol.

Consider “NSELLSLIHDMPITNDQKKLMSNNVQIVRQ [SEQ ID NO: 25]”, for which the ΔHbinding is -10.0 kcal/mol.

As for “STYMLTNSELLSLIHDMPITNDQKKLMSNN [SEQ ID NO: 26]”, the ΔHbinding is −12.6* Kcal/Mol.

Regarding “NSELLSLINDMPITNDQKKLMSNN-NH2 (NSELLSLINDMPITNDQKKLMSNNNH; C-terminal amide) [SEQ ID NO.28]”, where the note is “pH 6, 10° C.”, the binding enthalpy came to 4.8 ± 0.1 kcal/M, the binding site detected is reported as 1 and the stoichiometry is 4.

The record behind these values is patent publication US9499590B2, “Antibodies against and methods for producing vaccines for respiratory syncytial virus” (MEDIMMUNE, LLC, priority 2009, dated 2016).
